Compound potency records, mixed from different reports. Data source: NIAID ChemDB in PubChem.

All rows: growth or infection tests; organism: Hepatitis C virus; endpoint: inhibition

Inhibition is in % at the dose shown (toxicity tests: loss of growth or viability).

compound,mutations,read by,strain or isolate,cell line,dose,value
COc1cccc(-c2cccc(NC(=O)C3CCN(CC=C(C)C)CC3)c2)c1,,PCR,JFH-1,Huh7,5 µM,≥40%
CC1(C)CC[C@]2(C(=O)O)CC[C@]3(C)C(=CC[C@@H]4[C@@]5(C)CC[C@H](O)C(C)(C)[C@@H]5CC[C@]43C)[C@@H]2C1,,luciferase / entry,,Huh7,5 µM,26.4%
CC1(C)CC[C@@]2(C(=O)NCCCCNC(=O)[C@]34CCC(C)(C)CC3C3=CCC5[C@@]6(C)CC[C@H](O)C(C)(C)C6CC[C@@]5(C)[C@]3(C)C[C@H]4O)C(C1)C1=CCC3[C@@]4(C)CC[C@H](O)C(C)(C)C4CC[C@@]3(C)[C@]1(C)C[C@H]2O,,luciferase / entry,,Huh7,1 µM,46.5%
C=C(C)[C@@H]1CC[C@]2(C(=O)O)CC[C@]3(C)[C@H](CC[C@@H]4[C@@]5(C)CC[C@H](O)C(C)(C)[C@@H]5CC[C@]43C)[C@@H]12,,luciferase / entry,,Huh7,5 µM,65.2%
Cn1c(=O)c2c(ncn2C)n(C)c1=O,,luciferase / replicon,JFH-1,Huh7.5,500 µM,33.56%
CCn1cc(C(=O)O)c(=O)c2cc(F)c(N3CCN(CN4C(=O)/C(=N\c5ncc(Cc6cc(OC)c(OC)c(OC)c6)c(N)n5)c5cc(F)ccc54)C(C)C3)c(F)c21,,,,Huh7,50 µg/mL,89%
O=C(Nc1cccc(-c2ccco2)c1)C1CCN(C(=O)c2ccoc2)CC1,,PCR,JFH-1,Huh7,15 µM,<40%
CC1(C)CC[C@@]2(C(=O)NCc3cn(Cc4ccc(Cn5cc(CNC(=O)[C@]67CCC(C)(C)CC6C6=CCC8[C@@]9(C)CC[C@H](O)C(C)(C)C9CC[C@@]8(C)[C@]6(C)C[C@H]7O)nn5)cc4)nn3)C(C1)C1=CCC3[C@@]4(C)CC[C@H](O)C(C)(C)C4CC[C@@]3(C)[C@]1(C)C[C@H]2O,,luciferase / entry,,Huh7,1 µM,88.9%
COC(=O)C1=CO[C@@H](O)[C@@H]2C(CO)=CC[C@H]12,,entry,,,20 µg/mL,17.1%
CC1(C)CC[C@@]2(C(=O)NCc3cn(CCCCn4cc(CNC(=O)[C@]56CCC(C)(C)CC5C5=CCC7[C@@]8(C)CC[C@H](O)C(C)(C)C8CC[C@@]7(C)[C@]5(C)C[C@H]6O)nn4)nn3)C(C1)C1=CCC3[C@@]4(C)CC[C@H](O)C(C)(C)C4CC[C@@]3(C)[C@]1(C)C[C@H]2O,,luciferase / entry,,Huh7,5 µM,69.9%
O=C(Nc1ccc(-c2nc3ccccc3[nH]2)cc1)C1CCN(Cc2cccc(F)c2)CC1,,PCR,JFH-1,Huh7,15 µM,≥40%
COC(=O)C1=CO[C@@H](OC2O[C@H](CO)[C@@H](O)[C@H](O)[C@H]2O)[C@H]2[C@@H]1[C@H](O)[C@H](O)[C@]2(C)O,,entry,,,20 µg/mL,0%
COc1cc(Cc2cnc(/N=C3\C(=O)N(CN4CCN(C)CC4)c4ccc(F)cc43)nc2N)cc(OC)c1OC,,,,Huh7,50 µg/mL,96%
O=C(/C=C/c1ccc(O)cc1)OCC1=C[C@@H](O)[C@@H]2C=CO[C@@H](OC3O[C@H](CO)[C@@H](O)[C@H](O)[C@H]3O)[C@H]12,,entry,,,20 µg/mL,0%
Cc1n[nH]c(=O)c2cc3c(C)n[nH]c(=O)c3cc12,,luciferase / reporter gene,GT2a,Huh7.5,50 µM,55%
CC1(C)CC[C@@]2(C(=O)NCc3cn(CCCCCn4cc(CNC(=O)[C@]56CCC(C)(C)CC5C5=CCC7[C@@]8(C)CC[C@H](O)C(C)(C)C8CC[C@@]7(C)[C@]5(C)C[C@H]6O)nn4)nn3)C(C1)C1=CCC3[C@@]4(C)CC[C@H](O)C(C)(C)C4CC[C@@]3(C)[C@]1(C)C[C@H]2O,,luciferase / entry,,Huh7,1 µM,65.5%
O=C1N/C(=N\c2nnc(-c3ccc(Cl)cc3)s2)S/C1=C\c1c(F)cccc1Cl,,MTS,,Huh7.5-FGR-JC1-Rluc2A,100 µM,0%
O=c1[nH]cnc2c1sc(=S)n2Cc1ccccc1,,luciferase / reporter gene,GT2a,Huh7.5,50 µM,35%
COc1cccc(-c2ccccc2NC(=O)C2CCN(CCC(C)c3ccccc3)CC2)c1,,PCR,JFH-1,Huh7,15 µM,≥40%
Nc1nc2c(cnn2[C@H](C=O)O[C@@H](C=O)CO)c(=O)[nH]1,,luciferase / reporter gene,GT1b,Huh7,50 µM,0%
COc1cc([C@@H]2O[C@H](c3cc(OC)c4c(c3)OCO4)[C@@H](C)[C@@H]2C)cc(OC)c1OC,T1056A T1429I S2204I,luciferase,Subgenomic replicon S52,Huh7.5,12.5 µM,96%
CC1(C)CC[C@@]2(C(=O)NCc3cn(CCO)nn3)C(C1)C1=CCC3[C@@]4(C)CC[C@H](O)C(C)(C)C4CC[C@@]3(C)[C@]1(C)C[C@H]2O,,luciferase / entry,,Huh7,1 µM,34.9%
COc1cc(Cc2cnc(/N=C3\C(=O)N(CN4CCN(c5cccc(Cl)c5)CC4)c4ccc(F)cc43)nc2N)cc(OC)c1OC,,,,Huh7,50 µg/mL,92%
CC1(C)CC[C@@]2(C(=O)NCc3cn(Cc4ccccc4Cn4cc(CNC(=O)[C@]56CCC(C)(C)CC5C5=CCC7[C@@]8(C)CC[C@H](O)C(C)(C)C8CC[C@@]7(C)[C@]5(C)C[C@H]6O)nn4)nn3)C(C1)C1=CCC3[C@@]4(C)CC[C@H](O)C(C)(C)C4CC[C@@]3(C)[C@]1(C)C[C@H]2O,,luciferase / entry,,Huh7,1 µM,51.5%
COc1cc(/C=C/C(=O)CC(=O)/C=C/c2ccc(O)c(OC)c2)ccc1O,,luciferase / reporter gene,,Huh7/Rep-Feo cells,10 µM,40–60%
COc1cccc(-c2ccccc2NC(=O)C2CCN(Cc3ccc(OC)c(C)c3)CC2)c1,,PCR,JFH-1,Huh7,15 µM,≥40%
O=C(OCC1=C[C@@H](O)[C@@H]2C=CO[C@@H](O)[C@H]12)c1ccc(O)cc1,,entry,,,20 µg/mL,20.3%
COc1cc(Cc2cnc(/N=C3\C(=O)N(CN4CCN(c5cc6c(cc5F)c(=O)c(C(=O)O)cn6C5CC5)CC4)c4ccc(F)cc43)nc2N)cc(OC)c1OC,,,,Huh7,50 µg/mL,100%
CC(=O)OC[C@]12[C@H](OC(C)=O)[C@H](OCc3ccccc3)[C@@H]3[C@@H](OC(C)=O)[C@@]14O[C@@]3(C)COC(=O)c1cccnc1C(C)C(C)C(=O)O[C@@H]([C@H](OC(C)=O)[C@@H]2OC(C)=O)[C@]4(C)O,,,Cell culture J6/JFH-1,Huh7.5,50 µM,99%
COc1cc(Cc2cnc(/N=C3\C(=O)N(CN4CCN(c5cccc(C(F)(F)F)c5)CC4)c4ccc(F)cc43)nc2N)cc(OC)c1OC,,,,Huh7,50 µg/mL,88%
C[C@@H]1[C@H]2[C@H](O)OC=C(C(=O)O)[C@H]2C[C@@H]1O,,entry,,,20 µg/mL,52.5%
CC1(C)CC[C@@]2(C(=O)NCc3cn(CC(Cn4cc(CNC(=O)[C@]56CCC(C)(C)CC5C5=CCC7[C@@]8(C)CC[C@H](O)C(C)(C)C8CC[C@@]7(C)[C@]5(C)C[C@H]6O)nn4)n4cc(CNC(=O)[C@]56CCC(C)(C)CC5C5=CCC7[C@@]8(C)CC[C@H](O)C(C)(C)C8CC[C@@]7(C)[C@]5(C)C[C@H]6O)nn4)nn3)C(C1)C1=CCC3[C@@]4(C)CC[C@H](O)C(C)(C)C4CC[C@@]3(C)[C@]1(C)C[C@H]2O,,luciferase / entry,,Huh7,1 µM,19.8%
C[C@H]1[C@H]2[C@H](O)OC=C(C(=O)O)[C@H]2C[C@@H]1O,,entry,,,20 µg/mL,5.3%
CCCn1ncc(CN2CCC(C(=O)Nc3ccc(Oc4ccccc4F)cc3)CC2)c1C,,PCR,JFH-1,Huh7,15 µM,≥40%
CN(C)CCCn1cnc2c(=O)oc3ccccc3c21,,luciferase / reporter gene,GT2a,Huh7.5,50 µM,19%
COc1cccc(O)c1CN1CCC(C(=O)Nc2ccc(Oc3ccccc3F)cc2)CC1,,PCR,JFH-1,Huh7,5 µM,≥40%
COC(=O)C1=CO[C@@H](O)[C@H]2[C@@H]1C(=O)C[C@@H]2C,,entry,,,20 µg/mL,43.4%

A second listing of 3 rows from above:

COc1cccc(-c2ccccc2NC(=O)C2CCN(Cc3ccc(OC)c(C)c3)CC2)c1 ; read by: PCR ; strain or isolate: JFH-1 ; cell line: Huh7 ; dose: 15 µM ; value: ≥40%
COC(=O)C1=CO[C@@H](O)[C@H]2[C@@H]1C(=O)C[C@@H]2C ; read by: entry ; dose: 20 µg/mL ; value: 43.4%
COc1cc([C@@H]2O[C@H](c3cc(OC)c4c(c3)OCO4)[C@@H](C)[C@@H]2C)cc(OC)c1OC ; mutations: T1056A T1429I S2204I ; read by: luciferase ; strain or isolate: Subgenomic replicon S52 ; cell line: Huh7.5 ; dose: 12.5 µM ; value: 96%

Two numbers with a dash give a range or band. An empty or dashed field is not shown. Lines come from different laboratories, so protocols vary.